Article PMC10221074 (Toxins, 2023)
End groups of sequences in plain letters are not given here.

Test: peptide made by a vendor
Conditions: whole synthesis, HPLC and mass spectrometry by the supplier, scale of the general procedure 10 mg of each peptide

Row | Sequence | purity (crude or final not stated) [%]
1 | SLLGLLDVVKSKVGQTGLL | 95.4
2 | SLLGLLDVVKNKVGQIG | 97.3
3 | LLDVVKSKIGQTGLL | 92.0
4 | SLLGLLDVVKSKIGQTG | 90.6
5 | DVVKSKVGQT | 98.6
6 | GSLLGLLDVVKSKVGQTGLL | 89.4
7 | SLFGLLDLVKSKVGQTGLL | 82.0
8 | SLLGLLDVVKNTVGQ | 93.4
9 | SLLGLLDVVKNTVGQTG | 82.4
10 | SLLGLLDVVKSKIGQT | 80.3
11 | SLLGLLDVVKNKVGQIGLL | 96.8
12 | SLFGLLDLVKNKVGQTGLL | 93.5
13 | SLLGLLDVVKNTVGQT | 95.7
14 | SLLGLLDVVKSKIGQTGLL | 83.9
15 | SLLGLLDVVKNTVGQTGLL | 70.5
16 | SLLGLLDVVKNKVGQI | 87.8
